In patent publication US20040234531A1, “Chimeric human leukocyte antigen and epitope-bearing molecules having immunosuppressant activity” (priority 2001, published 2004) one finds % Fcγ2a+6.5+ T cells in the spleen data, which are given here for one substance.

The experiment deals with 14.3d TCR-HA.

For “mDEF (soluble, bivalent MHC class II peptide chimera I-E^d/HA110-120/Fcγ2a) (peptide-MHC)”, the % Fcγ2a+6.5+ T cells in the spleen is below 0.2%.
